From patent US20250120989A1, “BRIDGED TRICYCLIC CARBAMOYLPYRIDONE COMPOUNDS AND USES THEREOF” (priority 2023, published 2025)

Assays:
HIV-1 (IIIB) = assay: Antiviral assay in MT-4 cells; format: cell-based; settings: read-out: MT4 EC50; HIV-1 (IIIB) replication in MT-4 cells, 5 days, Cell Titer Glo
MT-4 cells = assay: Cytotoxicity assay in MT-4 cells; settings: read-out: MT4 CC50; uninfected MT-4 cells, 5 days, Cell Titer Glo

Structure (SMILES)	EC50 (HIV-1 (IIIB)) [nM]	CC50 (MT-4 cells) [nM]
CC1=NO[C@@]2(CC[C@H](C)N3C[C@H]2n2cc(C(=O)NCc4ccc(F)cc4F)c(=O)c(OC(=O)N(C)CCN(C)C(=O)OCOP(=O)(O)O)c2C3=O)C1	1.63	17500
CC1=NO[C@@]2(CC[C@H](C)N3C[C@H]2n2cc(C(=O)NCc4ccc(F)cc4F)c(=O)c(OC(=O)N(C)C)c2C3=O)C1	100	50000
CC1=NO[C@@]2(CC[C@H](C)N3C[C@H]2n2cc(C(=O)NCc4ccc(F)cc4F)c(=O)c(OC(=O)N(C)CCN(CC(=O)O)C(=O)OCOP(=O)(O)O)c2C3=O)C1	1.75	17800
CC1=NO[C@@]2(CC[C@H](C)N3C[C@H]2n2cc(C(=O)NCc4ccc(F)cc4F)c(=O)c(OC(=O)N(CCN(CC(=O)O)C(=O)OCOP(=O)(O)O)CC(=O)O)c2C3=O)C1	2.13	10600
CC1=NO[C@@]2(CC[C@H](C)N3C[C@H]2n2cc(C(=O)NCc4ccc(F)cc4F)c(=O)c(OC(=O)N(CCOP(=O)(O)O)CC(=O)O)c2C3=O)C1	1.94	
